Assay results published in patent US20250002564A1 (HOSPITAL FOR SICK CHILDREN, published 2025).

Experiments:
[1] = target: T1, SARS-CoV-2 Spike on wild-type pseudotyped virus (PsV) (SARS-CoV-2); test: cell-based or functional assay
[2] = target: T1, SARS-CoV-2 Spike on wild-type …; test: cell-based or functional assay; remark: listed apart in the source

B1: VHH-72 fused to the light chain of human apoferritin (24-mer particle) (other)
chain: QVQLQESGGGLVQAGGSLRLSCAASGRTFSEYAMGWFRQAPGKEREFVATISWSGGSTYYTDSVKGRFTISRDNAKNTVYLQMNSLKPDDTAVYYCAAAGLGTVVSEWDYDYDYWGQGTQVTVSGGGGSGGGGSGGGGSGGGGSGGGGSGGGSSQIRQNYSTDVEAAVNSLVNLYLQASYTYLSLGFYFDRDDVALEGVSHFFRELAEEKREGYERLLKMQNQRGGRALFQDIKKPAEDEWGKTPDAMKAAMALEKKLNQALLDLHALGSARTDPHLCDFLETHFLDEEVKLIKKMGDHLTNLHRLGGPEAGLGEYLFERLTLRHD
Median IC50 [1]: 0.13 pM
fold increase in PsV neutralization potency against VHH-72-Fc [2]: ~10000 fold
